Human monoclonal antibodies against the spike receptor-binding domain (heavy:light variable regions). IC50 against pseudoviruses bearing the spike of naturally observed variants; lower = stronger; >10 µg/ml means not reached at the top dose. No active / inactive call. The stated detection limit is 0.0005 µg/ml; values near or below 0.001 µg/ml lie at the floor of the assay.
B1: DH1082 (protein)
chain 1: EVQLVESGGGLIQPGGSLRLSCAASGLFFGAYSMNWVRQAPGKGLEWVAYISSSSKTIYYADSVKGRFTISRDNAKNELFLQMTSLRDEDTAVYFCACMVGPTAPFDFWGQGTRVTVSS
chain 2: DIQMTQSPSSLSASVGDRVTITCRAGQIIGTYLNWYQQRPGKAPMLLIYAASNLHSGVPSRFSGSGSGTDFTLTIDSLQPEDFATYYCQQTYSTPRTFGPGTKLEIK
B2: BD56-598 (protein)
chain 1: QLQLQESGPGLVKPSETLSLTCTVSGDSISGSFSYWGWIRQPPGKGLEWIGTIYYSGSTYYNPSLKSRVTISVDTSKNQFSLKLSSLTAADTAVYYCARTPSILWWGQFDYWGQGTLVTVSS
chain 2: NFMLTQPHSVSESPGKTVTISCTGSSGSIASNYVQWYQQRPGSAPTNVIYEDNQRPSGVPDRFSGSIDRSSNSASLTISGLKTEDEADYYCQSYDSNKLVVFGGGTKLTVL
B3: BD56-601 (protein)
chain 1: EVHLVESGGGLVQPGGSLRLSCSASGFTFSNYAMHWVRQTPGKGLEYVSSIGSNGDSPYYADSVKGRFIISRDNSKNTLYLQMSSLRDEDTAVYYCVKDVNTAMVTIFDCWGQGTLVTVSS
chain 2: DIQMTQSPPSLSASVGDRVTITCRASQSISTYLNWYQQKPGKAPKLLIYSASNLQSGVPSRFSGSGSRTDFTLTISSLQPEDFATYYCQQSYSSLLTFGGGTKVEIK
B4: BD56-604 (protein)
chain 1: QVQLQESGPGLVKPSETLSLTCSVSGGSVSSSDYYWSWIRQPPGKGLEWIGYIYYSGSTNYNPSLKSRVTISVDTSKNQFSLKLSSVTAADTAVYYCARGVAMVRGVLSGAEYFDYWGQGTLVTVSS
chain 2: SYELTQPPSVSVSPGQTARITCTGDAFPKQYAFWYQKKPGQPPVLVIYKDTERPSGIPGRFSGSSSGTTVTLTISGVQAADEADYYCQSADSSGVVFGGGTKLTVL
B5: BD56-615 (protein)
chain 1: EVQLVQSRAEVKKPGASLKISCKASGYNFTTYWIGWVRQMPGKGLEWMGIIYPGDSDTRYRPSFEGQVSISADKSITTAYLQWRTLKASDTAVYYCARLVSFDWFVDYWGQGTLVTVSS
chain 2: DIVMTQTPLSLSVTPGQPASISCKSSQSLLQSDGTTSLYWYLQKPGQPPQLLIYEVSNRFSGVPDRFSGSGSGTDFTLKISRVEAEDVGVYYCMQSIQLLTWTFGQGTKVEIK
B6: BD56-616 (protein)
chain 1: VQLVQSGAEVKRPGSSVRVSCKTSGGTFGGYTITWVRQAPGQGLEWMGRIIPILGVPYYAQKFQGRITMTADKSTSTAYMELSSLKSEDTAVYYCARDLRSGSSLGDCGQGTLVTVSS
chain 2: DIQMTQSPSSLSASVGDRVTITCQATQDITNYLNWYQQKPGKAPKLLIYDASNLETGVPSRFSGSGSGTEFTFTISSLQPEDIGTYYCQQYADLLSLTFGGGTKVEIK
B7: DH1159-2 (protein)
chain 1: QVQLQESGPGLVKPSQTLSLTCTVSGGSISSATYYWSWIRQPAGKGLEWIGHIYTSGTTNYNPSLKSRVTISVDTSKSQFSLKLNSVTAADTAVYYCARGLRFCSDTRCYPYFDYWGQGTLVTVSS
chain 2: DIQMTQSPSSLSASVGDRVTITCRASQSISNYLNWYQQTPGKAPKLLVYATSGLQSGVPSRFTGSGSGTDFTLTISSLQPGDFAIYYCQQTYSAPWTFGQGTKVEIK
B8: BD56-618 (protein)
chain 1: QVQLVESGGGVVQPGRSLRLSCAASGFTFSRFAMHWVRQAPGKGLEWVAVVSYDAGNKYYADSVKGRFTISRDNSKNTLYLQMNSLRAEDTAVYYCAKGDYYGSGTYFNPYGMDVWGQGTTVIVSS
chain 2: ATQLTQSPSSLSASVGDRVTITCRASQDISSALAWYQQKPGKAPKLLIFDASTLKSGVPSRFSGSGSGTDFTLTISSLQPEDSATYYCQQFSNYLVTFGGGTKVEIK
B9: BD56-620 (protein)
chain 1: QVQLVESGGGVVKPGRSLTLSCAASGFNFRTYAMHWVRQAPGKGLEWVAVISSDGSYKYYADSVKGRFTISRDNSKNTLYLQMNSLRAEDTAVYYCVREEGGDSVDDLNVRFDYWGQGTLVIVSS
chain 2: DIQMTQSPSSLSASVGDRVTITCRASQNINYYLNWYQQKPGKAPNLLIYSASRLQSGVPSRFSGSGSGTHFTLTISSLQPEDFATYYCQQSYSTSMYTFGQGTKLEIK
B10: BD56-628 (protein)
chain 1: QVQLQESGPGLVKPSETLSLTCTVSGGSVSSGDYYWSWIRQPPGKGLEWIGYIYYSGSTNYNPSLKSRVSISVDTSKNQFSLKMSSVTTADTAVYYCARGIAVVGTDDDYYYYYGMDVWGQGTTVTVSS
chain 2: SYELTQPPSMSVSLGQMARITCSGEALPKKYAYWYRQKPGQFPVLVIYKDNERPSGIPERFSGSSSGTIVTLTISGVQAEDEADYYCLSADSSDTWVFGGGTKLTVL
B11: BD56-632 (protein)
chain 1: QVQLVESGGGVVQPGRSLRLSCAASGFSFSNYAMHWVRQAPGKGLEWVADISYDGSKKHFADSVKGRLTISRDNSKNTLYLELNSLRAEDTAVYYCAKLHYYSDTAGYYYEDYFNFWGQGTLVTVSS
chain 2: EIVLTQSPATLSLSPGERATLSCRASQSVNNYLAWYQQRPGQAPRLLIYDASNRATGIPARFSGSGSGTDFTLTISSLEPEDFAVYYCHQRSDWPLTFGGGTKVEIK
B12: BD56-638 (protein)
chain 1: QVQLVESGGGVVQPGRSLRLSCAASGFTFSNYAIHWVRQAPGKGLEWLAVISYDGTYKYYSDSVKGRFTISRDSSNTLYLQLNSLTTEDTAVYFCARDMNAHPSVYAYGMDVWGPGTTVTVS
chain 2: QSVLTQPPSVSGAPGQRVTISCTGSTSNVGAGYDVHWYQQLPGTAPKLLIYGNSDRPSGVPDRFSGSKSGTSAALAITGLQAEDEAAYYCQSYDSSLSGWLFGGGTELTVL
B13: P4A1 (protein)
chain 1: EVQLVESGGGLIQPGGSLRLSCAASGFIVSSNYMSWVRQAPGKGLEWVSIIYSGGSTFYADSVKGRFTISRDNSKNTLYLQMNSLRVEDTAVYYCARDLQELGSLDYWGQGTLVTVSS
chain 2: DIQMTQSPSSVSASVGDRVTITCRASQGISSWLAWYQQKPGKAPKLLIYAASSLQSGVPSRFSGSGSGTDFTLTISSLQPEDFATYYCQEANSFPYTFGQGTKLEIK

Target: SARS-CoV-2 Omicron BA.1 spike pseudovirus
Experiment: pseudovirus neutralization IC50; higher = weaker neutralization
Description: (§1)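 Single-round VSV luciferase pseudovirus mixed with antibody dilutions for 1 h and put on Huh-7 cells for about a day; IC50 from the dose curve.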

Binder	pseudovirus neutralization IC50
B1	> 10 µg/mL
B2	2.2 µg/mL
B3	> 10 µg/mL
B4	> 10 µg/mL
B5	0.043 µg/mL
B6	0.0864 µg/mL
B7	> 10 µg/mL
B8	0.0556 µg/mL
B9	> 10 µg/mL
B10	3.32 µg/mL
B11	0.995 µg/mL
B12	2.33 µg/mL
B13	> 10 µg/mL

Target: SARS-CoV-2 Omicron BA.2 spike pseudovirus
Experiment: as above
Description: as §1

Binder	pseudovirus neutralization IC50
B1	> 10 µg/mL
B2	1.98 µg/mL
B3	> 10 µg/mL
B4	> 10 µg/mL
B5	0.112 µg/mL
B6	0.069 µg/mL
B7	> 10 µg/mL
B8	0.0434 µg/mL
B9	> 10 µg/mL
B10	3.55 µg/mL
B11	0.841 µg/mL
B12	2.78 µg/mL
B13	> 10 µg/mL

Target: SARS-CoV-2 Omicron BA.2.75 spike pseudovirus
Experiment: as above
Description: as §1

Binder	pseudovirus neutralization IC50
B1	> 10 µg/mL
B2	3.13 µg/mL
B3	> 10 µg/mL
B4	> 10 µg/mL
B5	0.254 µg/mL
B6	0.0597 µg/mL
B7	> 10 µg/mL
B8	0.0343 µg/mL
B9	> 10 µg/mL
B10	6.44 µg/mL
B11	0.475 µg/mL
B12	2.18 µg/mL
B13	> 10 µg/mL

Target: SARS-CoV-2 Omicron BA.5 spike pseudovirus
Experiment: as above
Description: as §1

Binder	pseudovirus neutralization IC50
B1	> 10 µg/mL
B2	1.52 µg/mL
B3	> 10 µg/mL
B4	> 10 µg/mL
B5	0.0844 µg/mL
B6	> 10 µg/mL
B7	> 10 µg/mL
B8	> 10 µg/mL
B9	> 10 µg/mL
B10	5.35 µg/mL
B11	0.357 µg/mL
B12	2.21 µg/mL
B13	> 10 µg/mL

Target: SARS-CoV-2 Omicron BQ.1.1 spike pseudovirus
Experiment: as above
Description: as §1

Binder	pseudovirus neutralization IC50
B1	> 10 µg/mL
B2	1.92 µg/mL
B3	> 10 µg/mL
B4	> 10 µg/mL
B6	> 10 µg/mL
B7	> 10 µg/mL
B8	> 10 µg/mL
B9	> 10 µg/mL
B10	> 10 µg/mL
B11	> 10 µg/mL
B12	> 10 µg/mL
B13	> 10 µg/mL

Target: SARS-CoV-2 Omicron XBB spike pseudovirus
Experiment: as above
Description: as §1

Binder	pseudovirus neutralization IC50
B1	> 10 µg/mL
B2	1.83 µg/mL
B3	> 10 µg/mL
B4	> 10 µg/mL
B6	3.7 µg/mL
B7	> 10 µg/mL
B8	3.25 µg/mL
B9	> 10 µg/mL
B10	7.21 µg/mL
B11	> 10 µg/mL
B12	> 10 µg/mL
B13	> 10 µg/mL

Target: SARS-CoV-2 early D614G spike pseudovirus
Experiment: as above
Description: as §1

Binder	pseudovirus neutralization IC50
B1	5.28 µg/mL
B2	0.874 µg/mL
B3	> 10 µg/mL
B4	> 10 µg/mL
B5	0.0102 µg/mL
B6	0.122 µg/mL
B7	2.96 µg/mL
B8	0.032 µg/mL
B9	3.31 µg/mL
B10	3.11 µg/mL
B11	0.5 µg/mL
B12	3.74 µg/mL
B13	0.0438 µg/mL

Source: the supplement of paper PMC9931576
